Source: article PMC10287707
Where a protein sequence is shown, tags need not be part of it.

Tested on: T1, TIA1 RRM1-3 (Homo sapiens)
T1 sequence (looked up): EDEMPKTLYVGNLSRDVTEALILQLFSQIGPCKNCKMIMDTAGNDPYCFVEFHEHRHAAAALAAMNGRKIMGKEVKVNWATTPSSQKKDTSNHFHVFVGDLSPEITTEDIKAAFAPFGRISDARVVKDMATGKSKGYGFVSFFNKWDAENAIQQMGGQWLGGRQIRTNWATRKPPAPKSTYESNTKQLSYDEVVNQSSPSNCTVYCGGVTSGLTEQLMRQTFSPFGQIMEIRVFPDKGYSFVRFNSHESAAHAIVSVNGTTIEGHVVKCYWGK
Assay: EMSA
Details: 10 mM sodium phosphate pH 6.5, 50 mM NaCl, 1 mM DTT; room temperature, 20 min; 1.2% agarose; protein 0.1-10 uM; RNA annealed in 10 mM Tris pH 7.5, 100 mM KCl; purified recombinant protein; residues 2-274; label: 5' Cy3

Row | Sequence | binding result
1 | UUUUUUUUUUU [U11] | binds
2 | UUUCGAUCUCUUGUAGAUCUGUUCUCUAAACGAACUUUAAAAUCU [SL2+SL3] | binds
